Experimental data: patent publication US20120100142A1 (VANDERBILT UNIVERSITY, published 2012)

B1: mAb 4D20 (antibody, V domains shown)
VH: EVQLVESGPVLVKPTETLTVTCTVSGFSVDNDRMGVSWIRQPPGKALEWLAHIFSNDEKSYSTSLRSRLTISKDTSKRQVVLSMTDMDPVDTATYYCARAPSEYAAMDVWGQGTMVTVS
VL: SYVLTQPPSVSVAPGETATVTCGGNNIGSKSVHWYQQKPGQAPVVVIYYDGDRPSGIPERFSGSNSGDTATLTISRVEAGDEADYYCLVWDYTSVHYVFGTGTKVTVLG
B2: mAb 2D1 (antibody, V domains shown)
VH: EVQLVESGPALVKPTQTLTLTCSFSGFSLSTSGMSVSWIRQPPGKALEWLALIDWDDDTYYITYSSSLKTRLTISKDTSKSQVVLTMTNMDPVDTATYYCARTLRVSGDYVRDFDLWGRGTLVTVS
VL: QPVLTQPPSASGTPGQRVTISCSGSSSNIGSNTVSWYQQVPGTAPKLLIYGNNERPSGVPDRFSGSKSATSASLAISGLQSEDEADYYCAAWDDSLNGFWVFGGGTKLTVLG
B3: mAb 1I20 (antibody, V domains shown)
VH: EVQLVESGGGVVQPGGSLRLSCIASAFNLGIFGMHWVRQAPGKGLEWVAFIRYDGGKTFYADSVKGRFTISRDNSKNTLYLQMNSLRTEDTALYYCARDATADYYGPGSYPNWLDPWGQGTLVTVS
VL: DIRLTQSPATLSVSPGERATLSCRASHSVSRNLAWYQQKPGRAPRLLVYDTSSRATGIPARFSGSGSGTEFTLTISSLQSEDFAVYYCQQYNNWPRTFGQGTKVDIK
B4: mAb 2B12 (antibody, V domains shown)
VH: EVQLQESGPGLVKPSQTLSLTCNVSGGSITGDYKWSWIRQPPGKGLEWIGHIHSTGTTYYNPSLRSRITISMDTSKNNLSLRLTSVTAADTAVYYCASHTLTSGHYPRDFDFWGQGTLVTVSS
VL: SYVLTQPPSVSGTPGQRVIISCSGYSSNIGSNTVNWYQQFPGTAPRLLIYANNQRPPGVPDRFSGSKSGTSASLAISGLQSDDESDYYCAAWDDSLNGHWVFGGGTKLTVLG

Each binder was assayed against HA of A/Mexico/4108/09 (2009 A (H1N1)) virus (influenza A/Mexico/4108/2009 (H1N1) …) (assay: cell-based or functional assay).

| Binder | HAI, specific activity of indicated mAb [µg/mL] | Neut Ab, specific activity of indicated mAb [µg/mL] |
| --- | --- | --- |
| B1 | > 5 | > 5 |
| B2 | 0.1 | – |
| B3 | > 5 | > 5 |
| B4 | 0.8 | 0.16 |

Each binder was assayed against HA of influenza A/Swine/Iowa/15/30 (H1N1) virus (influenza A/Swine/Iowa/15/30 (H1N1) …) (assay: cell-based or functional assay).

| Binder | Specific HAI activity [µg/mL] |
| --- | --- |
| B1 | 0.04 |
| B2 | 0.08 |
| B3 | 0.08 |
| B4 | 1.25 |
